# PSTVd stem 3 mutant pool in Nicotiana benthamiana

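A pool of all variants was put on leaves of three Nicotiana benthamiana plants. Progeny were sequenced from the inoculated region (day 5), the margin of the inoculated leaf (day 10) and systemic leaves (day 12).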

Region: stem 3 of PSTVd (intermediate strain), upper and lower strand joined, each 5' to 3', the first 8 letters being the upper strand. Wild type: GUGGUUCCGGAACCGC. Varied positions (N): GUGGUUCCGNANNCNN.

Numbers give reads per thousand; 0 = not seen among the reads, higher = more abundant.
Each value is the mean of three plants.
"Pool" is the share in the plasmid pool used as inoculum, on the same scale.
The inoculated region was read from the minus strand, the other sites from the plus strand.
For reference, wild type rose from 17.3 per thousand in the pool to 330, 345, 235 (inoculated region), 794, 766, 816 (leaf margin) and 830, 792, 869 (systemic leaves).
Sequences that differ at fixed positions probably stem from PCR or sequencing errors, and defective variants can be carried along by functional ones.
With 27,691-54,225 reads a sample, very low values are single reads.

| # | sequence | pool | inoculated region | leaf margin | systemic leaves |
|---|---|---|---|---|---|
| 1 | GUGGUUCCGAAUACUA | 1.68 | 0.967 | 0.0120 | 0.0630 |
| 2 | GUGGUUCCGAAUACUC | 0.846 | 0.329 | 0.0241 | 0 |
| 3 | GUGGUUCCGAAGCCCU | 0.769 | 0.829 | 0.437 | 0 |
| 4 | GUGGUUCCGUACCCAC | 0.846 | 0.287 | 0 | 0 |
| 5 | GUGGUUCCGGAAACGG | 0.923 | 0.294 | 0.0576 | 0.00621 |
| 6 | GUGGUUCCGCAGACCU | 0.754 | 0.733 | 0.107 | 0 |
| 7 | GUGGUUCCGAAACCUA | 0.739 | 0.718 | 0.177 | 0 |
| 8 | GUGGUUCCGCAUCCGU | 1.00 | 0.346 | 0.0106 | 0 |
| 9 | GUGGUUCCGAACGCGC | 1.74 | 0.410 | 0.0321 | 0.00621 |
| 10 | GUGGGUCCGGAUCCGA | 0.0154 | 0 | 0 | 0 |
| 11 | GUGGUUCCGAACCCUA | 0.939 | 0.333 | 0 | 0 |
| 12 | GUGGUUCCGAACCCGG | 0.739 | 0.358 | 0.0120 | 0 |
| 13 | GUGGUUCCGAAGUCGU | 0.785 | 0.636 | 1.10 | 1.10 |
| 14 | GUGGUUCCGCAGACGA | 0.893 | 0.367 | 0.0106 | 0 |
| 15 | GUGGUUCCGUAGGCUA | 0.754 | 0.249 | 0.0347 | 0 |
| 16 | GUGGUUCCGAAGUCCG | 0.769 | 0.786 | 0.452 | 0 |
| 17 | GUGGUUCCGCAGCCAA | 0.677 | 0.803 | 0.202 | 0 |
| 18 | GUGGUUCCGGAAGCAG | 0.754 | 0.251 | 0.0453 | 0 |
| 19 | GUGGUUCCGAAUUCUU | 1.45 | 1.01 | 0.849 | 1.16 |
| 20 | GUGGUUCCGGAAUCGU | 3.48 | 2.46 | 0.272 | 0.106 |
| 21 | GUGGUUCCGGACGCCC | 0.769 | 0.398 | 0.0226 | 0 |
| 22 | GUGGUUCCGCAUGCGU | 0.816 | 0.288 | 0.0120 | 0 |
| 23 | GUGGUUCCGUAGUCGC | 0.970 | 0.665 | 0.555 | 0 |
| 24 | GUGGUUCCGUAUUCCG | 0.800 | 0.337 | 0.0106 | 0 |
| 25 | GUGGUUCCGUAAGCGU | 0.846 | 0.405 | 0 | 0 |
| 26 | GUGGUUCCGGAAUCCC | 0.816 | 0.336 | 0 | 0 |
| 27 | GUGGUUCCGAAGCCCA | 1.09 | 0.856 | 0.0226 | 0 |
| 28 | GUGGUUCCGGACACGA | 0.785 | 0.283 | 0.0120 | 0 |
| 29 | GUGGUUCCGUACACGU | 1.63 | 0.450 | 0.0226 | 0.0559 |
| 30 | GUGGUUCCGCAACCCU | 0.585 | 0.417 | 0.0332 | 0 |
| 31 | GUGGGUCCGCAUGCGC | 0.0154 | 0 | 0 | 0 |
| 32 | GUGGUUCCGGACACAU | 1.05 | 0.690 | 0 | 0 |
| 33 | GUUGUUCCGGAUGCGA | 0.0154 | 0 | 0 | 0 |
| 34 | GUGGUUCCGGAGGCAA | 1.17 | 0.917 | 0 | 0.00621 |
| 35 | GUGGUUCCGCAGGCGG | 0.877 | 0.324 | 0.0321 | 0 |
| 36 | GUGGUUCCGAAGGCUU | 1.49 | 1.04 | 0.929 | 1.02 |
| 37 | GUGGUUUCGGACACUU | 0.0154 | 0 | 0 | 0 |
| 38 | GUGGUUCCGUAGUCGG | 0.908 | 0.723 | 0.0106 | 0 |
| 39 | GUGGUUCCGUAAGCUU | 0.970 | 0.263 | 0.0106 | 0 |
| 40 | GUGGUUCCGCAUUCGC | 0.785 | 0.305 | 0 | 0 |
| 41 | GGGGGUCCGAAACCCC | 0.0154 | 0 | 0 | 0 |
| 42 | AUGGUUCCGCAAGCGA | 0.0154 | 0 | 0 | 0 |
| 43 | GUGGUUCCGUAGCCUG | 0.785 | 0.364 | 0.00944 | 0 |
| 44 | GUGGUUCCGAAUGCCA | 0.846 | 0.247 | 0 | 0 |
| 45 | GUGGUUCCGAAGUCGA | 0.954 | 0.668 | 0.0321 | 1.00 |
| 46 | GUGGUUCCGAACUCUG | 0.985 | 0.840 | 0.506 | 0 |
| 47 | GUGGUUCCGCAACCGC | 0.923 | 0.281 | 0.0733 | 0.0861 |
| 48 | GUGGUUCCGGACGCGU | 0.893 | 0.254 | 0.0120 | 0 |
| 49 | GUGGUUCCGUAAUCUA | 1.34 | 0.347 | 0 | 0.0497 |
| 50 | GUGGUUCCGAAAUCCC | 0.816 | 0.731 | 0.128 | 0 |
| 51 | GUGGUUCCGCAUACUA | 0.816 | 0.343 | 0.0106 | 0 |
| 52 | GUGGUUCCGCAGGCCG | 0.846 | 0.281 | 0.00944 | 0.00615 |
| 53 | GUGGUUCCGUAAACAG | 0.662 | 0.260 | 0.0106 | 0 |
| 54 | GUGGUUCCGAAUUCAG | 1.45 | 1.20 | 1.03 | 1.07 |
| 55 | GUGGUUCCGCAGUCAG | 0.831 | 0.740 | 0.558 | 0 |
| 56 | GUGGUUCCGUACACUC | 0.846 | 0.353 | 0.0307 | 0 |
| 57 | GUGGUUCCGCAUACUU | 0.939 | 0.798 | 0.177 | 0 |
| 58 | GUGGUUCCGUAUGCAG | 1.51 | 0.933 | 0 | 0.00621 |
| 59 | GUGGUUCCGCAUCCUC | 0.831 | 0.233 | 0 | 0 |
| 60 | GUGGUUCCGUACGCAG | 1.02 | 0.300 | 0.00944 | 0 |
| 61 | GUGGUUCCGGACACUC | 1.06 | 0.363 | 0.0212 | 0 |
| 62 | GUGGUUCCGCAGGCUC | 0.923 | 0.316 | 0.0321 | 0 |
| 63 | GUGGUUCCGCAAUCUC | 0.754 | 0.299 | 0.0120 | 0 |
| 64 | GUGGUUCCGCAACCAA | 0.846 | 0.301 | 0 | 0 |
| 65 | GUGGUUCCGCACACGG | 0.708 | 0.315 | 0.0467 | 0 |
| 66 | GUGGUUCCGAAAUCAG | 1.02 | 0.829 | 1.03 | 1.09 |
| 67 | AUGGUUCCGUAAACCA | 0.0154 | 0 | 0 | 0 |
| 68 | GUGGUUCCGCAUACAU | 0.908 | 0.809 | 0.00944 | 0 |
| 69 | GUGGUUCCGAAUCCAU | 0.939 | 0.748 | 0.0226 | 0 |
| 70 | GUGGUUCCGGACCCGC | 1.59 | 1.28 | 0.620 | 0.719 |

A selection of 5 entries from above:

sequence	pool	inoculated region	leaf margin	systemic leaves
GUGGUUCCGUAAUCUA	1.34	0.347	0	0.0497
GUGGUUCCGCAUUCGC	0.785	0.305	0	0
GUGGUUCCGUACCCAC	0.846	0.287	0	0
GUGGUUCCGAAAUCAG	1.02	0.829	1.03	1.09
GUGGUUCCGGACCCGC	1.59	1.28	0.620	0.719

Source: Wu et al. 2024 (doi:10.1371/journal.ppat.1012142), supplementary data.